Km data for one molecule are collected here from paper PMC7229144, “Tetracycline-inactivating enzymes from environmental, human commensal, and pathogenic bacteria cause broad-spectrum tetracycline resistance” (Communications Biology, 2020).

Chains of the proteins cited; added tags and fusions are not shown. Lines headed by an entry give the natural chain unless they say otherwise; changes in a name come on top.
UniProt Q01911: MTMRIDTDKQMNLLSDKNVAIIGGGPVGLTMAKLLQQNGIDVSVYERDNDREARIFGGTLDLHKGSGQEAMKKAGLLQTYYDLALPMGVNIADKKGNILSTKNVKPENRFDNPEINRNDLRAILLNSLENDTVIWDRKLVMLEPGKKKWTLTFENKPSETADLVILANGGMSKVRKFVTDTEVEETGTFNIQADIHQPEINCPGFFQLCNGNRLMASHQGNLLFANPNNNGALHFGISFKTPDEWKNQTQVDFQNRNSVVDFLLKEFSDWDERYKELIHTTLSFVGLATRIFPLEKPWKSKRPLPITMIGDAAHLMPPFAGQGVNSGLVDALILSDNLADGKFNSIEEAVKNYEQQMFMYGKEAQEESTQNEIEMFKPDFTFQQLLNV

Molecules are shown by their SMILES.

The test deals with Tet(X) (Bacteroides fragilis, UniProt Q01911). The experiment in a line: steady-state kinetics, absorbance. To be noted: read-out: Km (apparent); 0-40 µM substrate, 504 µM NADPH, 5.04 mM MgCl2, 0.4 µM enzyme, 100 mM TAPS pH 8.5, room temperature.

One may read the Km as the substrate concentration at which the rate is half of its maximum. As to `CN(C)[C@@H]1C(=O)C(C(N)=O)=C(O)[C@@]2(O)C(=O)C3=C(O)c4c(O)c(NC(=O)CN5CCCC5)cc(F)c4C[C@H]3C[C@@H]12`, the Km is 4 µM.
